Pooled drug test results. Numbers come from NIAID ChemDB, via PubChem.

All rows: growth or infection tests

MIC50, MIC90 and the like: level of inhibition, or share of isolates inhibited. Blank or dashed fields: not listed here. Percent inhibition refers to the dose given; in toxicity tests it is the harm to the cells. ECn: concentration that inhibits the pathogen or its effect by n%. Rows are shuffled and stem from different studies. Fold resistance has wild type as its base.

smiles	method	changes	read-out	cell line	strain	agent	tested at	value
CCN(CC)CCCC(C)Nc1ccnc2cc(Cl)ccc12	cytopathic effect	-	inhibition	MRC-5 fibroblasts	-	Encephalitozoon cuniculi	25 µg/mL	34%
CO[C@@H]1[C@H](OC(=O)NC(=O)CCl)CC[C@]2(CO2)[C@H]1[C@@]1(C)O[C@@H]1CC=C(C)C	-	-	inhibition	RK-13	-	Encephalitozoon intestinalis	0.001 µg/mL	83.6%
COC(=O)Nc1nc2ccc(C(=O)c3cccs3)cc2[nH]1	-	-	EC90	-	ATCC 14116	Cryptococcus neoformans	-	0.29 µg/mL
Nc1nc2c(ncn2CCC(CO)CO)c(=O)[nH]1	plaque count	-	EC50	HEL	ACV-resistant	Varicella zoster virus	-	6.8 µg/mL
CC(=O)N1CCN(c2ccc(OC[C@H]3CO[C@](Cn4ccnc4)(c4ccc(Cl)cc4Cl)O3)cc2)CC1	-	-	MIC	-	Isogenic isolate 7 MDR1 (25X)	Candida albicans	-	≤0.008 µg/mL
CCCN1CCN(c2cc(=O)c3nc4c(oc3c2)c2c(=O)c3c(O)c(C)c5c(c34)=C(O)[C@@](C)(O/C=C/[C@H](OC)[C@@H](C)[C@@H](OC(C)=O)[C@H](C)[C@H](O)[C@H](C)[C@@H](O)[C@@H](C)/C=C/C=C(/C)C(=O)N2)O5)CC1	-	-	MIC90	-	20 strains (methicillin-resistant)	Staphylococcus aureus	-	0.0039 µg/mL
NC(=O)c1ncn([C@@H]2O[C@H](CO)[C@@H](O)[C@H]2O)n1	plaque count	-	EC50	HEP-2	SM61-48	Respiratory syncytial virus	-	7.67 µM
C#CC[C@@H](C(=O)N[C@H](/C=C/C(=O)OCC)C[C@@H]1CCNC1=O)n1cccc(NC(=O)c2cc(C)on2)c1=O	cytopathic effect / XTT	-	EC50	H1-HELA	Serotype 38	Rhinovirus	-	0.052 µM
Nc1ncnc2c1ncn2C[C@@H](CO)OCP(=O)(O)O	plaque count	-	EC50	HEL	ACV-resistant	Varicella zoster virus	-	0.0045 µg/mL
CCCCCCCCCC(=O)N[C@H]1[C@H](Oc2c3cc4cc2Oc2ccc(cc2Cl)[C@@H](O[C@@H]2O[C@H](CO)[C@@H](O)[C@H](O)[C@H]2NC(C)=O)[C@@H]2NC(=O)[C@H](NC(=O)[C@@H]4NC(=O)[C@H]4NC(=O)[C@@H](Cc5ccc(c(Cl)c5)O3)NC(=O)[C@H](N)c3ccc(O)c(c3)Oc3cc(O)cc4c3)c3ccc(O)c(c3)-c3c(O[C@H]4O[C@H](CO)[C@@H](O)[C@H](O)[C@@H]4O)cc(O)cc3[C@H](C(=O)O)NC2=O)O[C@H](CO)[C@@H](O)[C@@H]1O	-	-	MIC50	-	24 strains (ofloxacin-susceptible)	Staphylococcus aureus	-	0.5 µg/mL
C[C@H]1COc2c(N3CCN(C)CC3)c(F)cc3c(=O)c(C(=O)O)cn1c23	-	-	MIC	-	1C1 (PARC mutation SER79TYR)	Streptococcus pneumoniae	-	2 µg/mL
CCO/N=C/c1ccc(OCCC2CCN(c3ccc(C)nn3)CC2)cc1	neutral red	-	EC50	KB	363 (ICAM-1 receptor group 32)	Rhinovirus	-	1.359 µM
N[C@@H](C(=O)N[C@@H]1C(=O)N2C(C(=O)O)=C(Cl)CS[C@H]12)c1ccccc1	-	-	MIC90	-	38 strains (ampicillin-susceptible)	Haemophilus influenzae	-	32 µg/mL
CC[C@H]1OC(=O)[C@H](C)[C@@H](O[C@H]2C[C@@](C)(OC)[C@@H](O)[C@H](C)O2)[C@H](C)[C@@H](O[C@@H]2O[C@H](C)C[C@H](N(C)C)[C@H]2O)[C@](C)(O)C[C@@H](C)CN(C)[C@H](C)[C@@H](O)[C@]1(C)O	cytopathic effect	-	inhibition	MRC-5 fibroblasts	-	Encephalitozoon cuniculi	200 µg/mL	50%
Cc1ccnc2c1NC(=O)c1cccnc1N2C1CC1	-	RT-M41L T215Y K101E	EC95	MT-4	-	HIV-1	-	1.5 µM
CN(C)c1cc(NC(=O)CNC(C)(C)C)c(O)c2c1C[C@H]1C[C@H]3[C@H](N(C)C)C(=O)C(C(N)=O)=C(O)[C@@]3(O)C(=O)C1=C2O	broth dilution	-	MIC	-	X74	Mycobacterium abscessus	-	0.5 µg/mL
CC(=O)N[C@H]1[C@@H](O[C@@H]2O[C@H](C[C@@H](O)[C@H]3O[C@@H](n4ccc(=O)[nH]c4=O)[C@H](O)[C@@H]3O)[C@H](O)[C@H](O)[C@H]2NC(=O)/C=C/CC(C)C)O[C@H](CO)[C@@H](O)[C@@H]1O	-	-	inhibition	RK-13	-	Encephalitozoon intestinalis	1 µg/mL	82%
Nc1ncnc2c1ncn2C[C@H](CO)OCP(=O)(O)O	virus yield	-	EC90	-	13306 (TYPE 8)	Adenovirus	-	0.2 µg/mL
Nc1nccc2c1ncn2[C@@H]1C[C@H](CO)[C@@H](O)[C@H]1O	cytopathic effect	-	EC50	MDCK	-	Influenza C virus	-	>16 µg/mL
O=C(O)CP(=O)(O)O	plaque count	-	EC50	HEL	PCV-resistant/B	Varicella zoster virus	-	17.3 µg/mL
COC(=O)Nc1nc2ccccc2[nH]1	-	-	EC90	-	IU8698	Cryptococcus neoformans	-	2 µg/mL
Nc1nc2c(ncn2CCOCP(=O)(O)O)c(=O)[nH]1	virus yield	-	inhibition	-	Chicago	Measles virus	0.3 µg/mL	90%
NC(=O)c1nc(F)c[nH]c1=O	plaque count	-	EC50	MDCK	H1N1 NWS/33	Influenza A virus	-	0.091 µg/mL
COC(=O)Nc1nc2ccc(Sc3ccccc3)cc2[nH]1	-	-	EC50	-	10 isolates	Cryptococcus neoformans	-	0.012 µg/mL
CN(C)c1ccc(O)c2c1C[C@H]1C[C@H]3[C@H](N(C)C)C(=O)C(C(N)=O)=C(O)[C@@]3(O)C(=O)C1=C2O	cytopathic effect	-	EC50	MRC-5 fibroblasts	-	Encephalitozoon cuniculi	-	~50 µg/mL
Nc1ncnc2c1ncn2C[C@@H](CO)OCP(=O)(O)O	virus yield	-	EC90	-	adenoid 6 (TYPE 2)	Adenovirus	-	2 µg/mL
C[C@H]1c2cccc(O)c2C(O)=C2C(=O)[C@]3(O)C(O)=C(C(N)=O)C(=O)[C@@H](N(C)C)[C@@H]3[C@@H](O)[C@@H]21	broth dilution	-	MIC	-	-	Mycobacterium bolletii	-	>128 µg/mL
CO[C@H]1/C=C/O[C@@]2(C)Oc3c(C)c(O)c4c(O)c(c5c(c4c3C2=O)NC2(CCN(CC(C)C)CC2)N=5)=NC(=O)/C(C)=C\C=C\[C@H](C)[C@H](O)[C@@H](C)[C@@H](O)[C@@H](C)[C@H](OC(C)=O)[C@@H]1C	-	-	MIC	-	Newman	Staphylococcus aureus	-	0.0078 µg/mL
C[C@H]1CN(c2c(F)cc3c(=O)c(C(=O)O)cn(C4CC4)c3c2OC(F)F)CCN1	-	-	MIC90	-	30 strains	Streptococcus pneumoniae	-	0.25 µg/mL
CC(=O)NC[C@H]1CN(c2ccc(N3CCOCC3)c(F)c2)C(=O)O1	-	-	MIC90	-	25 strains (ofloxacin-resistant)	Staphylococcus aureus	-	2 µg/mL
Nc1nc(N)c2ncn(CCOCP(=O)(O)O)c2n1	plaque count	-	EC50	HEL	PFA-resistant/B	Varicella zoster virus	-	4.1 µg/mL
CC(C)(CO)C(=O)SCCOP(=O)(NCc1ccccc1)OC[C@H]1O[C@@H](n2cnc3c(=O)[nH]c(N)nc32)[C@](C)(O)[C@@H]1O	replicon	E295G	fold resistance	Replicon cells	GT1a	Hepatitis C virus	-	1.3
C=CCc1ccc(O)c(-c2ccc(O)c(CC=C)c2)c1	broth dilution	-	MIC	-	YL 319	Candida albicans	-	128 µg/mL
NC(=O)c1ncn([C@@H]2O[C@H](CO)[C@@H](O)[C@H]2O)n1	cytopathic effect	-	EC50	CV-1	CC	Measles virus	-	20 µg/mL
C[C@H](Cc1ccc(O)c(O)c1)[C@@H](C)Cc1ccc(O)c(O)c1	broth dilution	-	MIC100	-	CCC 131-2000	Candida lusitaniae	-	500 µg/mL
C[C@@H]1CN(c2c(F)c(N)c3c(=O)c(C(=O)O)cn(C4CC4)c3c2F)C[C@H](C)N1	cytopathic effect	-	inhibition	MRC-5 fibroblasts	-	Encephalitozoon cuniculi	5 µg/mL	0%
COc1cc(Cc2cnc(N)nc2N)cc(OC)c1OC	-	-	MIC	-	Isolate 94-886	Mycobacterium ulcerans	-	>16 µg/mL
CCOC(=O)Nc1cc2c(c(N)n1)N=C(c1ccc3ccccc3c1)CS2	-	-	inhibition	RK-13	-	Encephalitozoon intestinalis	0.001 µg/mL	6.5%
CO/N=C1\CN(c2nc3c(cc2F)c(=O)c(C(=O)O)cn3C2CC2)CC1CN	-	-	MIC50	-	24 strains (ofloxacin-susceptible)	Staphylococcus aureus	-	0.06 µg/mL
COc1ccc(C)c(NCc2cnc3nc(N)nc(N)c3c2C)c1	-	-	inhibition	RK-13	-	Encephalitozoon intestinalis	0.01 µg/mL	22.6%
Nc1ccc(S(=O)(=O)c2ccc(N)cc2)cc1	-	-	MBC	-	Isolate 94-886	Mycobacterium ulcerans	-	8 µg/mL
CN(C)[C@@H]1C(=O)C(C(N)=O)=C(O)[C@@]2(O)C(=O)C3=C(O)c4c(O)c(NC(=O)CN5CCOCC5)cc(F)c4C[C@H]3C[C@@H]12	agar diffusion	-	MIC	-	159-tet	Enterococcus faecalis	-	8 µg/mL
C[C@@H]1CN(c2c(F)c(N)c3c(=O)c(C(=O)O)cn(C4CC4)c3c2F)C[C@H](C)N1	-	-	MIC90	-	24 strains (ofloxacin-susceptible)	Staphylococcus aureus	-	0.12 µg/mL
CC1(C)[C@@H](O[C@H]2O[C@H](C(=O)O)[C@@H](O)[C@H](O)[C@H]2O[C@@H]2O[C@H](C(=O)O)[C@@H](O)[C@H](O)[C@H]2O)CC[C@]2(C)[C@H]3C(=O)C=C4[C@@H]5C[C@@](C)(C(=O)O)CC[C@]5(C)CC[C@@]4(C)[C@]3(C)CC[C@@H]12	cytopathic effect	-	EC50	VERO	TYPE 4 (YUNH)	Dengue virus	-	632.7 µg/mL
CN[C@@H]1[C@H](O[C@H]2[C@H](O[C@H]3[C@H](O)[C@@H](O)[C@H](N=C(N)N)[C@@H](O)[C@@H]3N=C(N)N)O[C@@H](C)[C@]2(O)C=O)O[C@@H](CO)[C@H](O)[C@H]1O	-	-	MIC	-	-	Staphylococcus epidermidis	-	25 µg/mL
CCn1cc(C(=O)O)c(=O)c2cc(F)c(N3CCN(C)CC3)cc21	cytopathic effect	-	EC50	MRC-5 fibroblasts	-	Encephalitozoon cuniculi	-	>20 µg/mL
Cc1c(N2C[C@@H](F)[C@@H](C3(N)CC3)C2)c(F)c(N)c2c(=O)c(C(=O)O)cn([C@@H]3C[C@@H]3F)c12	-	-	MIC50	-	24 strains (ofloxacin-susceptible)	Staphylococcus aureus	-	≤0.004 µg/mL
CCOC(=O)Nc1cc2c(c(N)n1)N=C(c1ccc(OC)c(OC)c1)CO2	-	-	inhibition	RK-13	-	Encephalitozoon intestinalis	10 µg/mL	77.5%

A second listing of 7 rows from above:

smiles,method,changes,read-out,cell line,strain,agent,tested at,value
C[C@@H]1CN(c2c(F)c(N)c3c(=O)c(C(=O)O)cn(C4CC4)c3c2F)C[C@H](C)N1,-,-,MIC90,-,24 strains (ofloxacin-susceptible),Staphylococcus aureus,-,0.12 µg/mL
O=C(O)CP(=O)(O)O,plaque count,-,EC50,HEL,PCV-resistant/B,Varicella zoster virus,-,17.3 µg/mL
CCOC(=O)Nc1cc2c(c(N)n1)N=C(c1ccc3ccccc3c1)CS2,-,-,inhibition,RK-13,-,Encephalitozoon intestinalis,0.001 µg/mL,6.5%
CC(=O)N1CCN(c2ccc(OC[C@H]3CO[C@](Cn4ccnc4)(c4ccc(Cl)cc4Cl)O3)cc2)CC1,-,-,MIC,-,Isogenic isolate 7 MDR1 (25X),Candida albicans,-,≤0.008 µg/mL
Nc1ncnc2c1ncn2C[C@H](CO)OCP(=O)(O)O,virus yield,-,EC90,-,13306 (TYPE 8),Adenovirus,-,0.2 µg/mL
CC(=O)NC[C@H]1CN(c2ccc(N3CCOCC3)c(F)c2)C(=O)O1,-,-,MIC90,-,25 strains (ofloxacin-resistant),Staphylococcus aureus,-,2 µg/mL
CCn1cc(C(=O)O)c(=O)c2cc(F)c(N3CCN(C)CC3)cc21,cytopathic effect,-,EC50,MRC-5 fibroblasts,-,Encephalitozoon cuniculi,-,>20 µg/mL